# Library screen at single concentrations

Source: ChEMBL document CHEMBL3988442, “University of Dundee, Small-Polar-MMV Screening Library” (2021).

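Phenotypic screen: M. tuberculosis growth, cholesterol and DPPC medium, 4 days; the read-out is not stated. Tested at 500 µM. Direction is inferred from retests: higher values go with more growth inhibition. Size under these conditions: about 18,000 compounds, about 900 of them at 50% or above in at least one test.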

Values are the deposited “Percent Effect”, in %. The record does not define 0% and 100%; most values in the screen are far below 50% and negative numbers occur (in some assays of this library far below -100). Many other results are left out here, so strong results are more common than in the screen.

{"smiles": "COC(=O)c1c(C)[nH]c(C(=O)NC2CC2)c1C", "percent effect": -15.49}
{"smiles": "Cc1ccc(NC(=O)C2CC(=O)N=C(N)S2)cc1Cl", "stereo": "stereo not given", "percent effect": 12.66}
{"smiles": "O=C1NCCC1C1(O)CCOCC1", "stereo": "stereo not given", "percent effect": -1.022}
{"smiles": "COCCN1CCN(CCS(=O)(=O)C(F)(F)F)CC1", "percent effect": 108.3}
{"smiles": "CCOc1ccccc1N(C)C(=O)c1cnn(CC)c1", "percent effect": 14.9}
{"smiles": "Cc1cc(F)ccc1C1NCCNC1=O", "stereo": "stereo not given", "percent effect": -5.006}
{"smiles": "O=C(NCC1(CO)CC1)OCc1ccccc1", "percent effect": 54.81}
{"smiles": "CC(C)CNc1nc(N)c2cn[nH]c2n1", "percent effect": 73.6}
{"smiles": "CN1CCC(NC(=O)c2cc(C(F)(F)F)nn2C)CC1", "percent effect": 16.73}
{"smiles": "NC(CO)c1ccc(Cl)cc1C(F)(F)F", "stereo": "stereo not given", "percent effect": 15.5}
{"smiles": "CSCCC(C)(N)C#N", "stereo": "stereo not given", "percent effect": 10.82}
{"smiles": "CCS(=O)(=O)N1CC(C(=O)N(C)C)Oc2ccccc21", "stereo": "stereo not given", "percent effect": 2.038}
{"smiles": "NC(=O)CCSCc1ccn(-c2ccccc2)n1", "percent effect": 86.71}
{"smiles": "CCN1CCC(CNCc2ccco2)C1", "stereo": "stereo not given", "percent effect": -7.241}
{"smiles": "CCCN1CCN(c2ccccn2)CC1", "percent effect": -1.268}
{"smiles": "Cc1noc(C)c1CN1CCOCC1(C)CO", "stereo": "stereo not given", "percent effect": 11.28}
{"smiles": "CN(Cc1cccc(F)c1)C(=O)c1cnccn1", "percent effect": 54.91}
{"smiles": "Cn1cncc1CCNC(=O)c1cc(Cl)cn1C", "percent effect": 6.431}
{"smiles": "CNC(=O)c1cc2ccccc2[nH]c1=O", "percent effect": -25.87}
{"smiles": "CC(O)(CCN)c1ccccc1", "stereo": "stereo not given", "percent effect": 6.479}
{"smiles": "O=C(c1ccsc1)N1CCC2(CC1)OCCO2", "percent effect": 1.787}
{"smiles": "COc1ccccc1OCC(C)NS(C)(=O)=O", "stereo": "stereo not given", "percent effect": 8.122}
{"smiles": "CCOc1ccc2c(c1)C(N)CCO2", "stereo": "stereo not given", "percent effect": 23.63}
{"smiles": "CN(C(=O)CN)c1ccc(-c2ccccc2)cc1", "percent effect": 76.43}
{"smiles": "CN(CCCNC(=O)c1cnccn1)CC(F)(F)F", "percent effect": 26.61}
{"smiles": "N#Cc1ccc(OCCN)cc1", "percent effect": 16.82}
{"smiles": "CC1CCN(S(=O)(=O)N2CCN(S(C)(=O)=O)CC2)CC1", "percent effect": 25.09}
{"smiles": "c1cc2nnnn2nc1NCCN1CCCCCC1", "percent effect": -13.91}
{"smiles": "O=C(CN1CCNCC1)c1ccco1", "percent effect": 65.05}
{"smiles": "O=C(Nc1nc2ccccc2[nH]1)C1CCCO1", "stereo": "stereo not given", "percent effect": 2.179}
{"smiles": "COCc1nn(CC(=O)N(C)C2CCCCC2)c(=O)o1", "percent effect": 33.12}
{"smiles": "COc1ncc(C(=O)N[C@@H]2COCC[C@H]2O)nc1OC", "percent effect": -9.082}
{"smiles": "COCCNC(=O)COC(=O)c1ccc2ncsc2c1", "percent effect": -13.09}
{"smiles": "CC1CCN(c2ccc(N)cn2)CC1", "percent effect": 8.153}
{"smiles": "Cc1ccc(CN)cc1S(C)(=O)=O", "percent effect": -13.4}
{"smiles": "O=C(NCCN1CC=CC1)c1c(O)cc(F)cc1F", "percent effect": 25.75}
{"smiles": "CCCc1nc(C)n[nH]1", "percent effect": -10.41}
{"smiles": "O=C1C=CC(=O)N1c1cccc(F)c1", "percent effect": 7.659}
{"smiles": "CCOc1cc(C)ccc1S(=O)(=O)Nc1ccccn1", "percent effect": 7.626}
{"smiles": "NC(=O)CN1CCC(OCc2ccccc2)CC1", "percent effect": 6.381}
{"smiles": "CS(=O)(=O)NC1CCCN(c2ccncc2Cl)C1", "stereo": "stereo not given", "percent effect": -7.195}
{"smiles": "O=C(CNc1ncccn1)NCCc1ccccc1", "percent effect": -3.208}
{"smiles": "CCOCCN(C)Cc1csnn1", "percent effect": 6.229}
{"smiles": "CC(CO)(NC(=O)c1c(O)cccc1F)C1CC1", "stereo": "stereo not given", "percent effect": -16.27}
{"smiles": "O=C(Nc1cccc(Cl)c1)N1CCCNCC1", "percent effect": 15.45}
{"smiles": "Nc1nnc(SCC(=O)NCCOc2ccccc2)s1", "percent effect": -6.734}
{"smiles": "NCc1nc(-c2ccc(OC(F)(F)F)cc2)no1", "percent effect": 84.27}
{"smiles": "COc1cc(C(C)=O)ccc1O", "percent effect": -0.7345}
{"smiles": "O=S(=O)(NC1CCCNC1)c1ccccc1", "stereo": "stereo not given", "percent effect": -2.677}
{"smiles": "CC(c1nc(-c2ccccn2)no1)N1CCSCC1", "stereo": "stereo not given", "percent effect": 59.17}
{"smiles": "CCOc1cccc(CNS(C)(=O)=O)c1", "percent effect": 37.95}
{"smiles": "CN(C)C1(CNC(=O)c2ccncc2)CCCC1", "percent effect": 20.07}

For reference, 5 entries once more:

SMILES	percent effect
O=C(CN1CCNCC1)c1ccco1	65.05%
O=C(NCCN1CC=CC1)c1c(O)cc(F)cc1F	25.75%
COc1ncc(C(=O)N[C@@H]2COCC[C@H]2O)nc1OC	-9.082%
O=S(=O)(NC1CCCNC1)c1ccccc1 (stereo not given)	-2.677%
CC(O)(CCN)c1ccccc1 (stereo not given)	6.479%